Laboratory results published in patent EP4821928A1, “BICYCLIC HETEROCYCLIC COMPOUND AND FUNGICIDE FOR AGRICULTURAL AND HORTICULTURAL USE CONTAINING SAME AS ACTIVE INGREDIENT” (dated 2026).

Assays:
[1] = tested on: Speckled leaf blotch fungus (Septoria tritici); test: Speckled leaf blotch anti-germ test (Test Example F); conditions: for Speckled leaf blotch anti-germ test (rate of inhibition): 50 ppm/well, Czapek-dox broth, 25°C for 3 days, absorbance 600 nm; for rate of inhibition: Test Example F, speckled leaf blotch anti-germ test
[2] = tested on: Anthracnose fungus (Glomerella cingulata); test: Anthracnose anti-germ test (Test Example E); conditions: for Anthracnose anti-germ test (rate of inhibition): 50 ppm/well, Czapek-dox broth, 25°C for 3 days, absorbance 600 nm; for rate of inhibition: Test Example E, anthracnose anti-germ test
[3] = tested on: Gray mold fungus (Botrytis cinerea); test: Gray mold anti-germ test (Test Example C); conditions: for Gray mold anti-germ test (rate of inhibition): 50 ppm/well, Czapek-dox broth, 25°C for 3 days, absorbance 600 nm; for rate of inhibition: Test Example C, gray mold anti-germ test
Magnaporthe grisea = test: Rice blast disease pot test (Test Example A); conditions: for Rice blast disease pot test (control value): 250 ppm sprayed, 2.5 ml/pot, rice variety Sachikaze, degree of disease development 6 to 8 days after inoculation; for control value: Test Example A, rice blast disease pot test
[4] = tested on: Fusarium blight fungus (Fusarium graminearum); test: Fusarium blight anti-germ test (Test Example D); conditions: for Fusarium blight anti-germ test (rate of inhibition): 50 ppm/well, Czapek-dox broth, 25°C for 3 days, absorbance 600 nm; for rate of inhibition: Test Example D, Fusarium blight anti-germ test
Botrytis cinerea = test: Tomato gray mold pot test (Test Example B); conditions: for Tomato gray mold pot test (control value): 250 ppm sprayed, 2.5 ml/pot, tomato variety Oogata Fukuju, degree of disease development 2 to 3 days after inoculation; for control value: Test Example B, tomato gray mold pot test

| Compound | Speckled leaf blotch anti-germ test (rate of inhibition) [1] | Anthracnose anti-germ test (rate of inhibition) [2] | Gray mold anti-germ test (rate of inhibition) [3] | Rice blast disease pot test (control value) (Magnaporthe grisea) | Fusarium blight anti-germ test (rate of inhibition) [4] | Tomato gray mold pot test (control value) (Botrytis cinerea) | rate of inhibition [1] | rate of inhibition [2] | rate of inhibition [3] | control value (Magnaporthe grisea) | rate of inhibition [4] | control value (Botrytis cinerea) |
| --- | --- | --- | --- | --- | --- | --- | --- | --- | --- | --- | --- | --- |
| Cc1ccc2c(c1)SC(C)(C)N=C2n1cnc2c(C)c(C)ccc21 | H (H represents a control value or rate of inhibition of larger than 50%) | H (H represents a control value or rate of inhibition of larger than 50%) | H (H represents a control value or rate of inhibition of larger than 50%) | H (H represents a control value or rate of inhibition of larger than 50%) | H (H represents a control value or rate of inhibition of larger than 50%) | H (H represents a control value or rate of inhibition of larger than 50%) | – | – | – | – | – | – |
| CCCC1(C)N=C(n2cnc3c(Cl)cccc32)c2cccc(C)c2O1 (stereo not drawn) | L (L represents a control value or rate of inhibition of 50% or less) | H (H represents a control value or rate of inhibition of larger than 50%) | H (H represents a control value or rate of inhibition of larger than 50%) | H (H represents a control value or rate of inhibition of larger than 50%) | L (L represents a control value or rate of inhibition of 50% or less) | H (H represents a control value or rate of inhibition of larger than 50%) | – | – | – | – | – | – |
| Cc1ccc2c(ncn2C2=NC(C)(C)S(=O)(=O)c3c(F)cccc32)c1C | L (L represents a control value or rate of inhibition of 50% or less) | H (H represents a control value or rate of inhibition of larger than 50%) | H (H represents a control value or rate of inhibition of larger than 50%) | H (H represents a control value or rate of inhibition of larger than 50%) | H (H represents a control value or rate of inhibition of larger than 50%) | H (H represents a control value or rate of inhibition of larger than 50%) | – | – | – | – | – | – |
| Cc1ccc2c(c1)OC(C)(C)N=C2n1cnc2c(C)cccc21 | H (H represents a control value or rate of inhibition of larger than 50%) | H (H represents a control value or rate of inhibition of larger than 50%) | H (H represents a control value or rate of inhibition of larger than 50%) | H (H represents a control value or rate of inhibition of larger than 50%) | H (H represents a control value or rate of inhibition of larger than 50%) | H (H represents a control value or rate of inhibition of larger than 50%) | – | – | – | – | – | – |
| Cc1cccc2c1OC(C)(C)N=C2n1cnc2c(F)c(F)ccc21 | L (L represents a control value or rate of inhibition of 50% or less) | H (H represents a control value or rate of inhibition of larger than 50%) | H (H represents a control value or rate of inhibition of larger than 50%) | H (H represents a control value or rate of inhibition of larger than 50%) | L (L represents a control value or rate of inhibition of 50% or less) | H (H represents a control value or rate of inhibition of larger than 50%) | – | – | – | – | – | – |
| COc1cccc2c1ncn2C1=NC(C)(C)Oc2c(F)cccc21 | L (L represents a control value or rate of inhibition of 50% or less) | H (H represents a control value or rate of inhibition of larger than 50%) | L (L represents a control value or rate of inhibition of 50% or less) | L (L represents a control value or rate of inhibition of 50% or less) | L (L represents a control value or rate of inhibition of 50% or less) | L (L represents a control value or rate of inhibition of 50% or less) | – | – | – | – | – | – |
| CCC(C)C1(C)N=C(n2cnc3c(C)c(C)ccc32)c2ccc(C)cc2O1 (stereo not drawn) | L (L represents a control value or rate of inhibition of 50% or less) | H (H represents a control value or rate of inhibition of larger than 50%) | H (H represents a control value or rate of inhibition of larger than 50%) | H (H represents a control value or rate of inhibition of larger than 50%) | H (H represents a control value or rate of inhibition of larger than 50%) | H (H represents a control value or rate of inhibition of larger than 50%) | – | – | – | – | – | – |
| COCCC1(C)N=C(c2cnc3c(C)c(C)ccn23)c2ccccc2O1 (stereo not drawn) | – | – | – | – | – | – | H (H represents a control value or rate of inhibition of larger than 50%) | H (H represents a control value or rate of inhibition of larger than 50%) | H (H represents a control value or rate of inhibition of larger than 50%) | H (H represents a control value or rate of inhibition of larger than 50%) | H (H represents a control value or rate of inhibition of larger than 50%) | H (H represents a control value or rate of inhibition of larger than 50%) |
| Cc1ccc2c(c1)OC(C)(CC(C)C)N=C2c1cnn2cc(C)cnc12 (stereo not drawn) | – | – | – | – | – | – | H (H represents a control value or rate of inhibition of larger than 50%) | H (H represents a control value or rate of inhibition of larger than 50%) | H (H represents a control value or rate of inhibition of larger than 50%) | H (H represents a control value or rate of inhibition of larger than 50%) | H (H represents a control value or rate of inhibition of larger than 50%) | H (H represents a control value or rate of inhibition of larger than 50%) |
| CCCCC1(C)N=C(c2cnn3c(C)c(C)ccc23)c2ccccc2S1 (stereo not drawn) | H (H represents a control value or rate of inhibition of larger than 50%) | H (H represents a control value or rate of inhibition of larger than 50%) | H (H represents a control value or rate of inhibition of larger than 50%) | H (H represents a control value or rate of inhibition of larger than 50%) | H (H represents a control value or rate of inhibition of larger than 50%) | H (H represents a control value or rate of inhibition of larger than 50%) | – | – | – | – | – | – |
| Cc1cccc2c1OC(C)(C)N=C2n1cnc2c(F)cccc21 | H (H represents a control value or rate of inhibition of larger than 50%) | H (H represents a control value or rate of inhibition of larger than 50%) | H (H represents a control value or rate of inhibition of larger than 50%) | H (H represents a control value or rate of inhibition of larger than 50%) | H (H represents a control value or rate of inhibition of larger than 50%) | H (H represents a control value or rate of inhibition of larger than 50%) | – | – | – | – | – | – |
| Cc1ccc2c(ncn2C2=NC(C)(C)Sc3c(F)cccc32)c1C | H (H represents a control value or rate of inhibition of larger than 50%) | H (H represents a control value or rate of inhibition of larger than 50%) | H (H represents a control value or rate of inhibition of larger than 50%) | H (H represents a control value or rate of inhibition of larger than 50%) | H (H represents a control value or rate of inhibition of larger than 50%) | H (H represents a control value or rate of inhibition of larger than 50%) | – | – | – | – | – | – |
| Cc1ccc2c(c1)OC1(CCC1)N=C2n1cnc2c(C)c(C)ccc21 | H (H represents a control value or rate of inhibition of larger than 50%) | H (H represents a control value or rate of inhibition of larger than 50%) | H (H represents a control value or rate of inhibition of larger than 50%) | H (H represents a control value or rate of inhibition of larger than 50%) | H (H represents a control value or rate of inhibition of larger than 50%) | H (H represents a control value or rate of inhibition of larger than 50%) | – | – | – | – | – | – |
| Cc1cccc2c1OC(C)(C)N=C2n1c(C)nc2c(C)c(C)ccc21 | H (H represents a control value or rate of inhibition of larger than 50%) | H (H represents a control value or rate of inhibition of larger than 50%) | H (H represents a control value or rate of inhibition of larger than 50%) | H (H represents a control value or rate of inhibition of larger than 50%) | H (H represents a control value or rate of inhibition of larger than 50%) | H (H represents a control value or rate of inhibition of larger than 50%) | – | – | – | – | – | – |
